Assay results: paper PMC11210859, “Antiviral activity of intracellular nanobodies targeting the influenza virus RNA-polymerase core” (2024)

Molecular target: PA-PB1 dimer: PA-Luc1 co-expressed with untagged PB1 (influenza A virus, strain not stated), P15659
Assay: split reporter (BiFC, NanoBiT)
Settings: remark: other sources report otherwise

B1: PB2 subunit of FluPol fused to Luc2, P03427 1-759 (natural protein)
chain: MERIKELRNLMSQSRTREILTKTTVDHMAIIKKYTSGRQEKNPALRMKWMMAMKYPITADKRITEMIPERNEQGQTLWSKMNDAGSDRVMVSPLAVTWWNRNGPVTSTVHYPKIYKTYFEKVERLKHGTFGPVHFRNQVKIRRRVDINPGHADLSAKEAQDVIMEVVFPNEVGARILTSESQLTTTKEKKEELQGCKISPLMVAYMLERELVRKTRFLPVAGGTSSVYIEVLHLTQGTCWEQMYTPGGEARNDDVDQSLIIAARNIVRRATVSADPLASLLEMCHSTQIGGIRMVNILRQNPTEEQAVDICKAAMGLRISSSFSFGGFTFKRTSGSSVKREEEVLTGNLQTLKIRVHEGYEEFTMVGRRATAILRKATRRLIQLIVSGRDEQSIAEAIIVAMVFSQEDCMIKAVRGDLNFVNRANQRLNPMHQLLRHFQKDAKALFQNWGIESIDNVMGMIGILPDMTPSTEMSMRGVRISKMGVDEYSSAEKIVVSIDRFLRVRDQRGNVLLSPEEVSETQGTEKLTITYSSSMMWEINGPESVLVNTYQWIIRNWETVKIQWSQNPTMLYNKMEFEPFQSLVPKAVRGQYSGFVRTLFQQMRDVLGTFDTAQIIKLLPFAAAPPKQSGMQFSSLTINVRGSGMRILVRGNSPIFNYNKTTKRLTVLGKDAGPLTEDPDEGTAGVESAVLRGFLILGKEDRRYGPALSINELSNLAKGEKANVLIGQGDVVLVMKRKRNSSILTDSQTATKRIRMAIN
Binder B1 has an NLR of 100.
